Preventive value and Protective value data for 1 compound are collected here from patent US4331670A (priority 1979, dated 1982).

Each structure is given as a SMILES string.

Test [1] relates to Rhizoctonia solani. The test can be described thus: Test 2: protective value on rice plants inoculated with Rhizoctonia solani. The class given is in vivo, Rhizoctonia solani (rice plant, Chukyo Asahi). Conditions: 100 ppm, 20 ml sprayed; lesion length after 5 days.
The subject of test [2] is Sphaerotheca fuliginea. Kind of test: Test 4: protective value on cucumber inoculated with Sphaerotheca fuliginea. The class given is in vivo, Sphaerotheca fuliginea (cucumber plant, Suyo). The settings on record: 500 ppm, 10 ml sprayed; lesions ten days after inoculation.
Test [3] relates to Plasmopara viticola. Kind of test: Test 10: protective value on cucumber inoculated with Plasmopara viticola. Format: in vivo, Plasmopara viticola (cucumber plant, Suyo). The settings on record: 500 ppm, 20 ml sprayed; lesions six days after inoculation.

With `[N-]=[N+]=Nc1c(C(F)(F)F)cc([N+](=O)[O-])c(Nc2ncc(C(F)(F)F)cc2Cl)c1[N+](=O)[O-]`, the Preventive value in test [1] is 95%. The Protective value in test [2] and in test [3] was 100% in each case.
